Anti-infective test results gathered from many reports (values: NIAID ChemDB through PubChem).

Shared fields: whole-cell or culture tests; organism: Herpes simplex virus 1; read-out: EC50

Two numbers with a dash give a range or band. Neighbouring rows are from separate reports. ECn: concentration that inhibits the pathogen or its effect by n%. An empty or dashed field is not shown.

structure	strain or isolate	method	value
CS/C=C/C(=O)NCCCCNC(=O)/C=C/SC	-	plaque count	<20 µg/mL
O=c1c2ncn(COCCO)c2nc2[nH]c(-c3ccccc3)c(-c3ccc(C(c4ccccc4)c4ccccc4)cc3)n12	KOS	cytopathic effect	>16 µg/mL
O=c1[nH]c(=O)n([C@@H]2S[C@H](CO)[C@@H](O)[C@@H]2F)cc1CCCl	VR	cytopathic effect	0.11 µg/mL
Cc1cn([C@H]2S[C@H](CO)C[C@H]2N=[N+]=[N-])c(=O)[nH]c1=O	-	-	>100 µg/mL
O=c1cc(/C=C/c2ccccc2O)c2ccc3occ(-c4ccc(-c5ccccc5)cc4)c3c2o1	-	cytopathic effect	250 µg/mL
Nc1ncc2c(ncn2/C=C2/CC2CO)n1	-	ELISA	>100 µM
[N-]=[N+]=N[C@@H]1C[C@@H](CO)S[C@H]1n1ccc(=O)[nH]c1=O	-	-	>100 µg/mL
O=c1ccn(CC=C(CO)CO)c(=O)[nH]1	-	-	>100 µg/mL
C=C[C@@](C)(CO)CCn1cnc2c(N)ncnc21	-	-	>100 µg/mL
Nc1nc(NCC2CC2CO)c(N=O)c(=O)[nH]1	-	cytopathic effect	>100 µg/mL
O=c1ccn(COCCO)c(=O)[nH]1	-	plaque count	>100 µM
O=c1[nH]c(=O)n(C2CC(O)C(CO)O2)cc1-c1ccno1	KOS	-	20 µM
Nc1nc(Cl)nc2c1ncn2[C@H]1S[C@H](CO)[C@@H](O)[C@@H]1F	VR	cytopathic effect	>27 µg/mL
NC1=NC2C(C=CN2CC(CO)CCO)C(=O)N1	-	-	0.01–0.1 µM
Nc1nc2c(ncn2COCCO)c(=O)[nH]1	KOS	cytopathic effect	0.5 µg/mL
Nc1nc(=S)n([C@@H]2O[C@H](CO)[C@@H](O)[C@@H]2O)cc1F	KOS	-	0.046 µg/mL
Nc1nc2c(ncn2COC(CO)CO)c(=O)[nH]1	-	plaque count	0.001–0.01 µM
Nc1nc(F)nc2c1ncn2[C@@H]1S[C@H](CO)[C@@H](O)[C@@H]1F	VR	cytopathic effect	9 µg/mL
CC(=O)NC1C(O)OC(CO)C(O)C1OC1OC(C(=O)[O-])C(OC2OC(CO)C(O)C(OC3OC(C(=O)[O-])C(O)C(O)C3O)C2NC(C)=O)C(O)C1O.[Na+].[Na+]	F	-	>400 µg/mL
O=C(NCc1ccc(Cl)cc1)c1c[nH]c2ccc(C#CCO)cc2c1=O	6 isolates	plaque count	13 µM
Cc1cn(CC=C(CO)CO)c(=O)[nH]c1=O	-	-	>100 µg/mL
Cc1cn([C@H]2CC[C@@H](CO)O2)c(=S)[nH]c1=O	F	-	0.55 µg/mL
O=c1[nH]c(=O)n([C@H]2S[C@H](CO)[C@@H](O)[C@@H]2F)cc1/C=C/Br	VR	cytopathic effect	>27 µg/mL
O=c1[nH]c(=O)n(C2CC(O)C(CO)O2)cc1-c1ccco1	KOS	-	0.45 µM
Nc1nc2c(ncn2COC(CO)CO)c(=O)[nH]1	KOS	plaque count	0.05 µM
Nc1nc2c(ncn2CC#CCO)c(=O)[nH]1	-	cytopathic effect	>100 µg/mL
C=C1[C@H](CO)[C@H]1Cn1cnc2c(Cl)ncnc21	-	-	>100 µM
Nc1nc2c(ncn2CCC(CO)CO)c(=O)[nH]1	-	-	0.04 µg/mL
Nc1nccc2c1ncn2[C@@H]1C[C@H](CO)[C@@H](O)[C@H]1O	KOS	cytopathic effect	>400 µg/mL
COc1ccc(-c2[nH]c3nc4c(ncn4COCCO)c(=O)n3c2-c2ccc(C(c3ccccc3)c3ccccc3)cc2)cc1	VMW 1837	cytopathic effect	>16 µg/mL
C/C(=C\Cn1ccc(N)nc1=O)CO	-	-	>100 µg/mL
Nc1nc2c(ncn2C[C@]2(CO)C[C@H]2CO)c(=O)[nH]1	OST (TK-)	-	137 µg/mL
C=C1[C@H](CO)[C@H]1Cn1cnc2c(=O)[nH]cnc21	-	-	>100 µM
Nc1nc2c(ncn2C[C@H]2C[C@@H]2CO)c(=O)[nH]1	-	cytopathic effect	>100 µg/mL
COc1ccc(-c2cn3c(=O)c4ncn(COC(CO)CO)c4nc3[nH]2)cc1	TK-deficient acyclovir-resistant	cytopathic effect	>16 µg/mL
Nc1ncc2c(ncn2/C=C2\CC2CO)n1	-	ELISA	>100 µM
C/C(=C\Cn1ccc(=O)[nH]c1=O)CO	-	-	>100 µg/mL
Cc1cn([C@@H]2S[C@H](CO)[C@@H](O)[C@@H]2F)c(=O)[nH]c1=O	VR	cytopathic effect	0.32 µg/mL
O=c1c2ncn(COCCO)c2[nH]c2ncc(C(c3ccccc3)(c3ccccc3)c3ccccc3)n12	TK-deficient acyclovir-resistant	cytopathic effect	>16 µg/mL
O=c1[nH]c(=S)ccn1COCCO	-	plaque count	>100 µM
Nc1nc2c(ncn2[C@H]2C=C[C@@H](CO)CC2)c(=O)[nH]1	-	-	0.01–0.1 µM
Cc1cn(COCCO)c(=O)[nH]c1=O	-	plaque count	>100 µM
C=C1[C@H](CO)[C@H]1Cn1cnc2c(Cl)nc(N)nc21	-	-	>100 µM
O=c1[nH]c(=O)n([C@@H]2S[C@H](CO)[C@@H](O)[C@@H]2F)cc1CCO	VR	cytopathic effect	27 µg/mL
Nc1nc2c(ncn2CC=C(CO)CO)c(=O)[nH]1	-	cytopathic effect	>100 µg/mL
CCCCCCCCCCCCOC(=S)S	-	plaque count	8.3 µM
[N-]=[N+]=N[C@H]1C[C@H](CO)S[C@@H]1n1cnc2c(N)ncnc21	-	-	>100 µg/mL
CC(=O)OC[C@H]1O[C@@H](n2cc(-c3cc(-c4ccc(C(C)(C)C)cc4)no3)c(=O)[nH]c2=O)CC[C@@H]1O	-	-	>0.06 µg/mL
CCc1cn([C@@H]2S[C@H](CO)[C@@H](O)[C@@H]2F)c(=O)[nH]c1=O	VR	cytopathic effect	0.012 µg/mL
COc1ccc2sc3c(c2c1)NCCNC3=O	-	-	1.13 µM
NC1=NC2C(C=CN2CC(CO)CCO)C(=O)N1	OST (TK-)	-	>250 µg/mL
S=C(S)OCc1ccccc1	-	plaque count	80 µM
O=C(NCc1ccc(Cl)cc1)c1c[nH]c2ccc(CCCO)cc2c1=O	MAC	plaque count	16 µM
CSC(=S)OC1CCCCC1	-	plaque count	47.2 µM
CCc1cn([C@H]2C[C@H](O)[C@@H](CO)O2)c(=O)[nH]c1=O	KOSSB (TK-)	plaque count	>780 µM
S=C(S)OC1CC2CC1C1CCCC21	-	plaque count	19.3 µM
Cc1cn([C@@H]2S[C@H](CO)C[C@H]2N=[N+]=[N-])c(=O)[nH]c1=O	-	-	>100 µg/mL
Nc1nc2c(ncn2[C@@H]2C[C@H](CO)[C@H]2CO)c(=O)[nH]1	-	-	0.01–0.1 µM

4 of the rows above, restated:

structure | strain or isolate | method | value
O=c1c2ncn(COCCO)c2[nH]c2ncc(C(c3ccccc3)(c3ccccc3)c3ccccc3)n12 | TK-deficient acyclovir-resistant | cytopathic effect | >16 µg/mL
CC(=O)OC[C@H]1O[C@@H](n2cc(-c3cc(-c4ccc(C(C)(C)C)cc4)no3)c(=O)[nH]c2=O)CC[C@@H]1O | - | - | >0.06 µg/mL
S=C(S)OC1CC2CC1C1CCCC21 | - | plaque count | 19.3 µM
COc1ccc2sc3c(c2c1)NCCNC3=O | - | - | 1.13 µM